Reference: PubChem BioAssay AID1259414 (Drosophila RNAi Screening Center, 2018)
The screen tested about 24,000 reagents; below is an unselected part of those with a known target gene and a result. Over the whole deposit, about 1,210 (5%) were called active. 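Inactive calls also include excluded dsRNAs with several or no targets, genes unexpressed in JW18, and well A1, regardless of score.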 A plus sign joins genes that one reagent is predicted to hit.

Purpose: 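Genome-wide screen for host control of endosymbiont load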 (primary screen)
System: Drosophila JW18 cells infected with Wolbachia
Reagents: long dsRNA against Drosophila genes, 0.25 µg dsRNA per well of a 384-well plate
Time to read-out: 5 days
Challenge: cells persistently infected with Wolbachia before knock-down; no added drug
Read-out: 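Imaged fluorescence in situ signal for Wolbachia 23S rRNA per DAPI-counted host cell, given as a robust z-score within each plate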
Reading the numbers: Wolbachia per cell robust z: higher = more Wolbachia per host cell than the plate typical
Call rule: 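Hit when robust z is 1.5 or more, or -1.5 or less, in at least two of three replicates; excludes dsRNAs with several or no targets, genes not expressed in JW18 and well A1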

no.	target gene	dsRNA	Wolbachia per cell robust z, rep 1	Wolbachia per cell robust z, rep 2	Wolbachia per cell robust z, rep 3	outcome
1	CG13308	DRSC09979	1.59	0.678	0.704	inactive
2	CG10750	DRSC02105	-2.77	0.0708	-1.43	inactive
3	CG10750	DRSC29624	-0.22	-6.03	0.475	inactive
4	CG12947 + asRNA:CR31514	DRSC14575	-0.586	0.788	0.488	inactive
5	CG5883	DRSC10552	0.278	-1.02	-0.528	inactive
6	Gcna	DRSC18553	0.625	0.84	-0.319	inactive
7	CG34266	DRSC08323	0.0116	-1.14	-1.01	inactive
8	Cpr76Bc	DRSC11062	-1.39	0.347	0.114	inactive
9	Cpr76Bc	DRSC27478	0.624	-0.343	0.134	inactive
10	Rat1	DRSC02044	-0.18	0.779	1.16	inactive
11	ASPP	DRSC23069	0.513	0.293	-1.86	inactive
12	sut3	DRSC07702	0.0954	-0.684	-0.821	inactive
13	sut3	DRSC24322	1.25	1.54	0.812	inactive
14	lilli	DRSC00708	-5.73	-1.56	-0.463	inactive
15	lilli	DRSC40693	0.201	1.07	-1.66	inactive
16	CG15611	DRSC06563	0.0977	-1.15	1.46	inactive
17	CG15611	DRSC06564	0.227	-1.22	0.781	inactive
18	Pak	DRSC12602	-2.57	-1.59	-1.82	inactive
19	Pak	DRSC23302	0.644	0.97	0.916	inactive
20	Pak	DRSC40780	-0.531	-0.0826	0.714	inactive
21	DAT	DRSC07394	-3.77	-0.119	0.134	inactive
22	CG13220	DRSC06342	-0.542	-1.14	0.101	inactive
23	CG8461	DRSC16424	0.797	-0.328	-3.34	inactive
24	Nmdmc	DRSC16760	-2.47	0.822	0.3	inactive
25	Nmdmc	DRSC26212	-0.476	0.461	-0.837	inactive
26	Fis1	DRSC07772	-0.66	-2.23	-2.58	active
27	CG14115	DRSC10118	0.269	0.0547	-0.648	inactive
28	Sems	DRSC11626	-1.2	0.505	0.0373	inactive
29	Sems	DRSC25887	-1.7	-0.0946	-1.76	inactive
30	CG42446	DRSC41345	0.462	0.448	-1.2	inactive
31	CG13685	DRSC10043	-1.83	-1.12	-5.12	active
32	CG13685	DRSC30064	0.308	0.128	0.81	inactive
33	CG1907	DRSC15399	1.03	0.202	-5.75	inactive
34	CG3568	DRSC18312	0.0124	-0.114	-3.99	inactive
35	CG3568	DRSC27793	-0.00191	0.633	0.938	inactive
36	CG15044	DRSC19620	-4.11	-0.121	-1.47	inactive
37	CG15044	DRSC21385	0.263	-1.1	-0.599	inactive
38	CG15044	DRSC28226	-0.024	-0.915	0.13	inactive
39	Pcif1	DRSC11655	0.374	-0.444	0.0042	inactive
40	Pcif1	DRSC24012	0.157	-0.44	0.471	inactive
41	CG13078	DRSC02182	0.191	-1.44	0.0913	inactive
42	snoRNA:Me18S-A1374 + Dys	DRSC16232	0.946	-0.718	-1.4	inactive
43	CG14695	DRSC14918	-0.0131	-0.396	-0.102	inactive
44	ringer	DRSC10455	-0.894	0.77	0.767	inactive
45	ringer	DRSC38837	-0.102	0.425	1.46	inactive
46	ringer	DRSC40661	-0.321	0.00193	-0.408	inactive
47	rl	DRSC07833	0.208	-3.53	-1.2	inactive
48	rl	DRSC20742	0.0237	-0.779	0.435	inactive
49	rl	DRSC21814	-0.0197	-0.188	-0.363	inactive
50	nkd	DRSC11376	0.517	-0.99	-0.261	inactive
51	nkd	DRSC26962	-2.73	-1.52	0.219	active
52	bsd	DRSC05953	-1.01	0.0641	-3.7	inactive
53	Sik3	DRSC06505	-4.5	0.0572	-0.473	inactive
54	Sik3	DRSC06771	0.364	0.117	0.0297	inactive
55	Sik3	DRSC29149	1.65	0.92	1.43	inactive
56	Sik3	DRSC29722	0.636	-0.312	0.922	inactive
57	Trap1	DRSC05019	-3.3	-0.386	-1.7	active
58	CG34302	DRSC38824	-0.998	0.169	-0.861	inactive
59	CG3906	DRSC04431	-5.29	-0.607	-3.3	inactive
60	CG3906	DRSC27931	-0.138	-0.202	0.554	inactive
61	CG16898	DRSC06635	-0.207	-0.352	0.127	inactive
62	CG16898	DRSC24760	-8.61	-0.642	-2.79	inactive
63	CG16898	DRSC39032	0.635	0.352	1.37	inactive
64	Acp98AB	DRSC21837	-1.76	-2.42	-0.552	inactive
65	dpr8	DRSC19406	-0.216	-3.5	-2.97	inactive
66	dpr8	DRSC19600	-0.73	-0.987	-5.11	inactive
67	dpr8	DRSC19938	-4.45	0.0793	-2.02	inactive
68	dpr8	DRSC19939	0.456	-1.37	-2.19	inactive

Active calls (from the list above):
target gene	dsRNA	Wolbachia per cell robust z, rep 1	Wolbachia per cell robust z, rep 2	Wolbachia per cell robust z, rep 3	outcome
Fis1	DRSC07772	-0.66	-2.23	-2.58	active
CG13685	DRSC10043	-1.83	-1.12	-5.12	active
nkd	DRSC26962	-2.73	-1.52	0.219	active
Trap1	DRSC05019	-3.3	-0.386	-1.7	active
